Data from patent US20120121591A1 (priority 2009, published 2012).

The chains behind the UniProt entries cited, without tags or fusion partners. Where a name states a change or a piece, a line headed by the entry shows the natural chain unless it says otherwise. Residues count along the entry.
UniProt Q92633: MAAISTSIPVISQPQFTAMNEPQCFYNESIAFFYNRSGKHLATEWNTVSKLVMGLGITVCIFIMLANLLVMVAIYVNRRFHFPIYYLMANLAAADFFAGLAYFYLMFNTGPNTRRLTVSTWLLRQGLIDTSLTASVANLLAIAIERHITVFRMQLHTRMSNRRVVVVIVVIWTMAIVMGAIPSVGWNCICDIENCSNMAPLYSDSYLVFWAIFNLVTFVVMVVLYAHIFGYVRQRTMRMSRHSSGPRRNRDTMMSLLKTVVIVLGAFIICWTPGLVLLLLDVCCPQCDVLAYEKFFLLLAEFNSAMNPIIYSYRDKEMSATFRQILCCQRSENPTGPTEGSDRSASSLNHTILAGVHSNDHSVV
UniProt P29474, 2-1203: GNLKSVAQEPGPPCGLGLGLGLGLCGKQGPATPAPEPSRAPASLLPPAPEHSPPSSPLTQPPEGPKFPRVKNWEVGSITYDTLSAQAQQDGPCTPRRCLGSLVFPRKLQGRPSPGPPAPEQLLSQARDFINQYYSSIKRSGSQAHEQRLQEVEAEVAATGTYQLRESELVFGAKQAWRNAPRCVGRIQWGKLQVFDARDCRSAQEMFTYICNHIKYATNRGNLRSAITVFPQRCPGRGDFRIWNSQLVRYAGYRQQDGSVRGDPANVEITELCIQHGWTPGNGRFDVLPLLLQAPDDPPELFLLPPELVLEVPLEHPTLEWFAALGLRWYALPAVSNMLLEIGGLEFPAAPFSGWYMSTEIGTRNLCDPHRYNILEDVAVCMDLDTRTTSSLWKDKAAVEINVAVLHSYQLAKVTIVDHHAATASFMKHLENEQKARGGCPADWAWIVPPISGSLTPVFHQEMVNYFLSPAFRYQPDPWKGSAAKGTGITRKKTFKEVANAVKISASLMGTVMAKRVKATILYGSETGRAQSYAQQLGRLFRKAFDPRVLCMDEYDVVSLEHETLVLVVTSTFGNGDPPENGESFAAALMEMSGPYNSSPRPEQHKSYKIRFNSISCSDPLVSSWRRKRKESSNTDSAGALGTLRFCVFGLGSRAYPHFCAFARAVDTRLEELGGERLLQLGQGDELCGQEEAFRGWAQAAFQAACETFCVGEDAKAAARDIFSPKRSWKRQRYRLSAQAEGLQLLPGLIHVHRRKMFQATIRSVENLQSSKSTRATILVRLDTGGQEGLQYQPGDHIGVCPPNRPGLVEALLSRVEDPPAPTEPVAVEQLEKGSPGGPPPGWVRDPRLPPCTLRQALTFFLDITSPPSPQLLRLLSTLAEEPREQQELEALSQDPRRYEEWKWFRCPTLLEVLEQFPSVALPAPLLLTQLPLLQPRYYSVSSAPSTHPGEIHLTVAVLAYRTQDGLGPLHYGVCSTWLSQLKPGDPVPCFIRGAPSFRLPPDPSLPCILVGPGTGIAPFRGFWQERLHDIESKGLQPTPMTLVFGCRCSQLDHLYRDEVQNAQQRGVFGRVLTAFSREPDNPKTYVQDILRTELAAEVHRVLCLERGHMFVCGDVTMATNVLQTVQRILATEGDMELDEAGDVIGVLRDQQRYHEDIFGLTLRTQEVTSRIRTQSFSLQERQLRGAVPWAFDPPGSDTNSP
UniProt P25929, whole entry: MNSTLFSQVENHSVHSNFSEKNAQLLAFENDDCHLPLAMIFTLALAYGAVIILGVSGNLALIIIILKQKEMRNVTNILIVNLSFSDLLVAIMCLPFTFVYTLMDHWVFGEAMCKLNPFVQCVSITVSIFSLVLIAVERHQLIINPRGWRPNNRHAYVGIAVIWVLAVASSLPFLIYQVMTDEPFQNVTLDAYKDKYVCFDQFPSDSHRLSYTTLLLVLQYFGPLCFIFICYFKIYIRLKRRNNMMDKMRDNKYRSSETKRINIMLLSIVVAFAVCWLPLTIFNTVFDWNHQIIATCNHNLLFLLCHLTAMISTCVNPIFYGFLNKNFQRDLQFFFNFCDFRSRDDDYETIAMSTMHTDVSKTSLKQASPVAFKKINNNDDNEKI
UniProt Q01064: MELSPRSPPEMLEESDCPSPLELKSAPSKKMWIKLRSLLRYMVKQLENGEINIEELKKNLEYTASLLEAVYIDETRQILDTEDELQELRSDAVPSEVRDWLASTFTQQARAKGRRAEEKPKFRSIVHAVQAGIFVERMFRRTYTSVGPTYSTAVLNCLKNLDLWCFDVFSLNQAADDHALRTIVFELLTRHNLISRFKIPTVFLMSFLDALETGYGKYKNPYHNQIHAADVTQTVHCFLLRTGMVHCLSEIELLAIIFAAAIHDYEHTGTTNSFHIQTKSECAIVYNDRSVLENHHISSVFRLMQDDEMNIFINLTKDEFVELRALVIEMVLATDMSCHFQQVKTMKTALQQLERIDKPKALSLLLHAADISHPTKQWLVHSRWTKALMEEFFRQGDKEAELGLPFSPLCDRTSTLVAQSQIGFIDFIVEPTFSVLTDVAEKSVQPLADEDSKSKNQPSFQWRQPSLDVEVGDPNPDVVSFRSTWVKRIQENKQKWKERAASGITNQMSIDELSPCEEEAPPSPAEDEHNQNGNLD
UniProt O15554, whole entry: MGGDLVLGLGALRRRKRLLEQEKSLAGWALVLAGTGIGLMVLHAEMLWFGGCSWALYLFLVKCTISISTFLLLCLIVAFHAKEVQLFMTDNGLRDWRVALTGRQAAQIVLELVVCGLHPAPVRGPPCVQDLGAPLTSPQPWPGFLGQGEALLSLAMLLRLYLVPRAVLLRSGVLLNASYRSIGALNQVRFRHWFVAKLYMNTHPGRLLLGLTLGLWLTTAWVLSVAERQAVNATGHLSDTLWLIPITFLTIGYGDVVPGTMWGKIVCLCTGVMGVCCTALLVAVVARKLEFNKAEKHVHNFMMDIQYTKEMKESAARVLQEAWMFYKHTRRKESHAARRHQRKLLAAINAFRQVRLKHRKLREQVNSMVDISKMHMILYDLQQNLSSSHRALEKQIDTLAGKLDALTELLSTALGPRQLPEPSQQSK

Key:
[1] = target: Lysophosphotodic A1 (Cerep target) (human) (UniProt Q92633)
[2] = target: Lysophosphotodic A1 (Cerep target) (human) (UniProt Q92633); experiment: Cerep safety pharmacology binding assay
[3] = target: Nitric Oxide (endothelial) (Cerep target) (human) (UniProt P29474)
[4] = target: Neuropeptide Y1 (Cerep target) (human) (UniProt P25929)
[5] = target: Ca Channel (N) (Cerep target) (human)
[6] = target: K Channel (Kv) (Cerep target) (human)
[7] = target: Phosphodiestrase 1B (Cerep target) (human) (UniProt Q01064)
[8] = target: K Channel (KATP) (Cerep target) (human)
human IKCa1 (human) = human IKCa1 (human) (UniProt O15554); experiment: cell-based or functional assay
[9] = target: Nitric Oxide (endothelial) (Cerep target) (human) (UniProt P29474); experiment: Cerep safety pharmacology binding assay
[10] = target: Neuropeptide Y1 (Cerep target) (human) (UniProt P25929); experiment: Cerep safety pharmacology binding assay
[11] = target: Ca Channel (N) (Cerep target) (human); experiment: Cerep safety pharmacology binding assay
[12] = target: K Channel (Kv) (Cerep target) (human); experiment: Cerep safety pharmacology binding assay
[13] = target: Phosphodiestrase 1B (Cerep target) (human) (UniProt Q01064); experiment: Cerep safety pharmacology binding assay
[14] = target: K Channel (KATP) (Cerep target) (human); experiment: Cerep safety pharmacology binding assay

## 20 kDa PEG-[Lys16]ShK (peptide; other documents disagree on this pair)
[1]
  % Inhibition: 62%
[2]
  pIC50: 5.26

## 20 kDa PEG-[Lys16]ShK (peptide)
[3]
  % Inhibition: 90%
[4]
  % Inhibition: 51%
[5]
  % Inhibition: 58%
[6]
  % Inhibition: 90%
[7]
  % Inhibition: 68%
[8]
  % Inhibition: 54%
Human IKCa1 (human)
  IKCa1 IC50: > 10000 nM
[9]
  pIC50: 6.23
[10]
  pIC50: 4.66
[11]
  pIC50: 5.52
[12]
  pIC50: 7.64
[13]
  pIC50: 4.57
[14]
  pIC50: 5.57

pIC50: −log10 of the molar value.
